Pooled drug test results. Numbers come from NIAID ChemDB, via PubChem.

All rows: tests on isolated targets; agent: HIV-1; target: Reverse transcriptase; read by: nucleotide incorporation; endpoint: IC50

ICn is the concentration giving n% inhibition. Neighbouring rows are from separate reports. a–b is a range or a potency band. An empty or dashed field is not shown.

smiles,strain,changes,value
Cc1cc(C)cc(Sc2c(C(C)C)c(=O)[nH]c(=S)n2COCCO)c1,IIIB,,16.8 µM
C=C(C)OC(=O)N1c2cc(Cl)ccc2NC(=O)C1(C)C,,,0.1–1 µg/mL
Cc1c(Sc2ccccc2)n(COCCOP(=O)(O)OP(=O)(O)OP(=O)(O)O)c(=O)[nH]c1=O,IIIB,,>250 µM
CCOCn1c(Cc2ccccc2)c(C(C)C)c(=O)[nH]c1=O,IIIB,,0.4 µM
Cc1cn([C@@H]2O[C@H](CO[Si](C)(C)C(C)(C)C)[C@@]3(OS(=O)(=O)C=C3N)[C@H]2O[Si](C)(C)C(C)(C)C)c(=O)[nH]c1=O,IIIB,Purified RT,0.62 µM
Cc1ccc(NC(=S)NC[C@@H](C)c2ccccc2)nc1,,,7.7 µM
CCc1cc(CCc2nc3ccccc3o2)c(=O)[nH]c1C,,,0.029 µM
C[C@H]1C(=O)Nc2ccc(Cl)cc2N1Cc1ccccn1,,,0.1–1 µg/mL
S=C(NCCc1cccc(Cl)c1)Nc1ccc(Br)cn1,,,2.5 µM
COc1ccc2c(c1)N(C(=O)OC(C)C)[C@@H](CSC)C(=O)N2,,,0.01–0.1 µg/mL
O=C(OC[C@H]1O[C@@H](OC(=O)c2cc(O)c(O)c(O)c2)[C@H](O)[C@@H](O)[C@@H]1O)c1cc(O)c(O)c(O)c1,,,>20 µg/mL
C[C@@H](CNC(=S)Nc1nc2ccccc2s1)c1ccccc1,,,>100 µM
O=c1c2ccccc2n2nnc3ccc(NCCCN4CCN(CCCNc5ccc6nnn7c8ccccc8c(=O)c5c67)CC4)c1c32,,,>100 µM
Oc1cc(O)c2c(c1)O[C@H](c1ccc(O)c(O)c1)[C@H](O)C2,,,>20 µg/mL
CC(C)=CCN1c2cc(Cl)ccc2NC(=O)[C@@H]1C,,,0.1–1 µg/mL
CCN1c2cccnc2N(C)C(=O)c2cc(Br)cnc21,,,>>1 µM
Cc1cccc(NC(=S)N[C@@H](C)c2ccccc2)n1,,,>100 µM
CCN1c2cc(Br)c(Br)nc2N(C)C(=O)c2cccnc21,,,>>1 µM
O=C(O[C@@H]1[C@H](O)C[C@@](OC(=O)c2cc(O)c(O)c(O)c2)(C(=O)O)C[C@H]1OC(=O)c1cc(O)c(O)c(O)c1)c1cc(O)c(O)c(O)c1,,,<20 µg/mL
Cc1csc(NC(=S)NC[C@@H](C)c2ccccc2)n1,,,>100 µM
C=CC1=C(N)C2(OS1(=O)=O)[C@@H](CO[Si](C)(C)C(C)(C)C)O[C@@H](n1cc(C)c(=O)[nH]c1=O)[C@@H]2O[Si](C)(C)C(C)(C)C,,RT-E138K,>500 µM
CCN1c2ncccc2C(=O)N(C)c2ccc(-c3cc[nH]c3)nc21,,RT-Y181C,0.05 µM
CCN1c2cc(-c3cccc(N)c3)cnc2N(C)C(=O)c2cccnc21,,,>>1 µM
CSC[C@H]1C(=S)Nc2ccc(Cl)cc2N1Cc1ccccn1,,,0.01–0.1 µg/mL
Nc1nc2c(ncn2[C@H]2CC[C@@H](COP(=O)(O)OP(=O)(O)OP(=O)(O)O)O2)c(=O)[nH]1,,,0.011 µM
C[C@H]1[C@H](C)Oc2c3c(c4c(-c5ccccc5)cc(=O)oc4c2[C@H]1O)OC(C)(C)C=C3,,,0.81 µM
CO[C@H]1/C=C/O[C@@]2(C)Oc3c(C)c(O)c4c(O)c(c5c(c4c3C2=O)NC2(CCN(CC(C)C)CC2)N=5)=NC(=O)/C(C)=C\C=C\[C@H](C)[C@H](O)[C@@H](C)[C@@H](O)[C@@H](C)[C@H](OC(C)=O)[C@@H]1C,,,75 µg/mL
Cc1cn([C@@H]2O[C@H](CO[Si](C)(C)C(C)(C)C)C3(OS(=O)(=O)C=C3N)[C@H]2O[Si](C)(C)C(C)(C)C)c(=O)n(C)c1=O,IIIB,,1.1 µM
Nc1ncnc2c1ncn2[C@@H]1O[C@H](COP(=O)(O)OP(=O)(O)OP(=O)(O)O)C[C@@H]1F,,RT-F77L F116Y Q151M,178 µM
Cc1cn([C@@H]2O[C@H](CO[Si](C)(C)C(C)(C)C)[C@@]3(OS(=O)(=O)C(/C=C/CO)=C3N)[C@H]2O[Si](C)(C)C(C)(C)C)c(=O)[nH]c1=O,,RT-E138K,>500 µM

For reference, 4 entries again:

smiles,strain,changes,value
CCN1c2cc(-c3cccc(N)c3)cnc2N(C)C(=O)c2cccnc21,,,>>1 µM
S=C(NCCc1cccc(Cl)c1)Nc1ccc(Br)cn1,,,2.5 µM
C[C@H]1[C@H](C)Oc2c3c(c4c(-c5ccccc5)cc(=O)oc4c2[C@H]1O)OC(C)(C)C=C3,,,0.81 µM
CCOCn1c(Cc2ccccc2)c(C(C)C)c(=O)[nH]c1=O,IIIB,,0.4 µM